Record: PubChem BioAssay AID624099 (ICCB-Longwood, 2012)

Test: 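Host factors E2 relies on to silence an HPV18 LCR reporter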 (primary screen)
Cell system: human C33A cervical carcinoma cells (HPV-negative) stably expressing BPV1 E2 and an HPV18 LCR luciferase reporter
Knock-down reagent: siRNA pool against human genes, 40 nM
Time to read-out: 72 h
Detection: 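Per-well luciferase luminescence, z-scored on each plate against the plate mean and SD with control wells left out, then averaged across three replicate plates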
Direction: mean z-score and z-score: higher = stronger reporter signal, weaker E2 silencing
Call rule: 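Mean z ≥ 2 together with z ≥ 2 in two or more of the three replicates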
Shown is a random part of about 21,000 reagents tested. Of all reagents, 497 (2.4%) got an active call. 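Higher z means weaker E2 silencing; only reporter increases were scored, and knock-downs that hurt cell survival may mask genuine repressor factors.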 Unmarked entries are inactive. The numbers tell different reagents against one gene apart.

| Gene | pool no. | mean z-score | z-score, replicate A | z-score, replicate B | z-score, replicate C |
| --- | --- | --- | --- | --- | --- |
| AGO1 (argonaute RISC component 1) | 1 | -1.38 | -1 | -1.52 | -1.63 |
| MTPAP (mitochondrial poly(A) polymerase) | 1 | -1.34 | -1.56 | -1.39 | -1.07 |
| LOC339760 (retired record) | 1 | -0.25 | -0.43 | -0.09 | -0.22 |
| LOC440341 (retired record) | 1 | -0.04 | -0.15 | 0.38 | -0.33 |
| LIFR (LIF receptor subunit alpha) | 1 | -0.09 | -0.22 | 0.13 | -0.18 |
| ADGRF2P (adhesion G protein-coupled receptor F2, pseudogene) | 1 | -0.53 | -0.56 | -0.75 | -0.3 |
| PIK3R2 (phosphoinositide-3-kinase regulatory subunit 2) | 1 | -0.99 | -0.87 | -0.87 | -1.23 |
| LOC388798 (retired record) | 1 | -0.99 | -0.89 | -0.91 | -1.18 |
| TSPAN6 (tetraspanin 6) | 1 | 0.56 | 0.4 | 0.67 | 0.61 |
| NDUFV3 (NADH:ubiquinone oxidoreductase subunit V3) | 1 | -0.28 | -0.07 | -0.72 | -0.06 |
| TFPI2 (tissue factor pathway inhibitor 2) | 1 | 0.12 | 0.08 | 0.06 | 0.22 |
| FBXL5 (F-box and leucine rich repeat protein 5) | 1 | 0.09 | 0.32 | -0.17 | 0.1 |
| KLHL28 (kelch like family member 28) | 1 | -0.78 | -0.92 | -0.77 | -0.65 |
| TRAPPC8 (trafficking protein particle complex subunit 8) | 1 | -1.4 | -1.45 | -1.45 | -1.3 |
| RORA (RAR related orphan receptor A) | 1 | -0.42 | -0.24 | -0.59 | -0.45 |
| CCNA2 (cyclin A2) | 1 | -0.73 | -0.82 | -0.7 | -0.68 |
| PARP3 (poly(ADP-ribose) polymerase family member 3) | 1 | 0.79 | 0.63 | 0.76 | 0.99 |
| XKR6 (XK related 6) | 1 | 1.1 | 1.42 | 0.94 | 0.93 |
| XKR6 (XK related 6) | 2 | -0.62 | -0.58 | -0.7 | -0.57 |
| LARP4B (La ribonucleoprotein 4B) | 1 | -0.7 | -0.69 | -0.48 | -0.93 |
| HEXA (hexosaminidase subunit alpha) | 1 | -1.12 | -1.44 | -1.26 | -0.66 |
| CXCR3 (C-X-C motif chemokine receptor 3) | 1 | -0.34 | -0.06 | -0.59 | -0.39 |
| IQCM (IQ motif containing M) | 1 | -0.16 | 0 | -0.31 | -0.17 |
| DUS3L (dihydrouridine synthase 3 like) | 1 | 0.07 | -0.12 | 0 | 0.31 |
| DEFB127 (defensin beta 127) | 1 | 0.33 | 0.27 | -0.09 | 0.81 |
| LOC389173 (retired record) | 1 | 1.9 | 2.42 | 1.45 | 1.85 |
| PFDN4 (prefoldin subunit 4) | 1 | 1.19 | 1.06 | 1.04 | 1.47 |
| WRAP53 (WD repeat containing antisense to TP53) | 1 | -2.27 | -2.15 | -2.22 | -2.43 |
| WSCD2 (WSC domain sialate O sulfotransferase 2) | 1 | 0.49 | 0.48 | 0.2 | 0.81 |
| NPTXR (neuronal pentraxin receptor) | 1 | -2.17 | -2.23 | -2.23 | -2.06 |
| DHRS7 (dehydrogenase/reductase 7) | 1 | -0.17 | -0.27 | -0.04 | -0.21 |
| SMTNL1 (smoothelin like 1) | 1 | 0.08 | 0.06 | 0.07 | 0.12 |
| TMEM65 (transmembrane protein 65) | 1 | 1.49 | 1.15 | 1.6 | 1.72 |
| IFI44 (interferon induced protein 44) | 1 | -0.36 | -0.26 | -0.41 | -0.42 |
| ZNF417 (zinc finger protein 417) | 1 | 0.16 | -0.42 | -0.09 | 1.01 |
| CANT1 (calcium activated nucleotidase 1) | 1 | -0.21 | -0.36 | -0.2 | -0.06 |
| MRPL16 (mitochondrial ribosomal protein L16) | 1 | -0.59 | -0.79 | -0.11 | -0.87 |
| FABP2 (fatty acid binding protein 2) | 1 | 0.25 | 0.27 | 0.14 | 0.35 |
| CPEB3 (cytoplasmic polyadenylation element binding protein 3) | 1 | 0.81 | 0.81 | 0.73 | 0.9 |
| TBCD (tubulin folding cofactor D) | 1 | -0.3 | 0.23 | -0.51 | -0.63 |

Continued, starting with the last 5 of the part before.
| Gene | pool no. | mean z-score | z-score, replicate A | z-score, replicate B | z-score, replicate C |
| --- | --- | --- | --- | --- | --- |
| CANT1 (calcium activated nucleotidase 1) | 1 | -0.21 | -0.36 | -0.2 | -0.06 |
| MRPL16 (mitochondrial ribosomal protein L16) | 1 | -0.59 | -0.79 | -0.11 | -0.87 |
| FABP2 (fatty acid binding protein 2) | 1 | 0.25 | 0.27 | 0.14 | 0.35 |
| CPEB3 (cytoplasmic polyadenylation element binding protein 3) | 1 | 0.81 | 0.81 | 0.73 | 0.9 |
| TBCD (tubulin folding cofactor D) | 1 | -0.3 | 0.23 | -0.51 | -0.63 |
| CDH12 (cadherin 12) | 1 | -0.68 | -0.85 | -0.58 | -0.6 |
| STAG1 (STAG1 cohesin complex component) | 1 | 0.3 | 0.02 | 0.45 | 0.42 |
| SLAMF7 (SLAM family member 7) | 1 | 0.57 | 0.99 | 0.61 | 0.1 |
| ODAD4 (outer dynein arm docking complex subunit 4) | 1 | -0.97 | -1 | -0.82 | -1.09 |
| GSTM4 (glutathione S-transferase mu 4) | 1 | 0.32 | -0.07 | 0.62 | 0.41 |
| UNC5C (unc-5 netrin receptor C) | 1 | -0.74 | -0.91 | -0.8 | -0.5 |
| SHROOM4 (shroom family member 4) | 1 | -0.52 | -0.6 | -0.49 | -0.48 |
| C9orf152 (chromosome 9 open reading frame 152) | 1 | 0.59 | 0.67 | 0.69 | 0.4 |
| NMRK1 (nicotinamide riboside kinase 1) | 1 | 1.62 | 1.48 | 1.7 | 1.68 |
| ANO3 (anoctamin 3) | 1 | -2.22 | -2.3 | -2.6 | -1.75 |
| OR2AK2 (olfactory receptor family 2 subfamily AK member 2) | 1 | 0.66 | 0.87 | 0.56 | 0.54 |
| ZNF721 (zinc finger protein 721) | 1 | 1.03 | 1.46 | 0.55 | 1.07 |
| RPS29 (ribosomal protein S29) | 1 | -2.74 | -2.68 | -2.7 | -2.84 |
| LOC401005 (retired record) | 1 | -0.03 | 0.05 | 0.09 | -0.25 |
| PVT1 (Pvt1 oncogene) | 1 | 1.14 | 0.81 | 1.26 | 1.36 |
| KIF1C (kinesin family member 1C) | 1 | 0.68 | 0.68 | 0.55 | 0.81 |
| SLC1A4 | 1 | -0.4 | -0.35 | -0.44 | -0.42 |
| MGC34919 (retired record) | 1 | 0.27 | 0.22 | 0.19 | 0.41 |
| HTN3 (histatin 3) | 1 | 1.02 | 0.7 | 1.06 | 1.31 |
| TBL1X (transducin beta like 1 X-linked) | 1 | -0.25 | 0.1 | -0.27 | -0.58 |
| RNMT (RNA guanine-7 methyltransferase) | 1 | -0.5 | -0.47 | -0.43 | -0.61 |
| EN2 (engrailed homeobox 2) | 1 | 0.98 | 1.04 | 0.79 | 1.11 |
| DERL1 (derlin 1) | 1 | -0.88 | -0.66 | -1.12 | -0.85 |
| LINC02363 (long independently transcribed non-coding RNA 2363) | 1 | 0.09 | 0.02 | -0.01 | 0.26 |
| ALDH1L1 (aldehyde dehydrogenase 1 family member L1) | 1 | -0.4 | -0.16 | -0.34 | -0.69 |
| PPFIA2 (PPFI scaffold protein A2) | 1 | -0.81 | -0.75 | -0.95 | -0.75 |
| NPFF (neuropeptide FF-amide peptide precursor) | 1 | -0.45 | -0.66 | -0.4 | -0.3 |
| C1orf94 (chromosome 1 open reading frame 94) | 1 | 0.07 | 0.41 | -0.35 | 0.15 |
| PDE1A (phosphodiesterase 1A) | 1 | 0.44 | 0.45 | 0.33 | 0.53 |
| SHOX2 (SHOX homeobox 2) | 1 | -1.28 | -1.47 | -1.24 | -1.12 |
| KRTAP6-3 (keratin associated protein 6-3) | 1 | -0.08 | -0.12 | -0.2 | 0.08 |
| RASAL2 (RAS protein activator like 2) | 1 | 0.24 | 0.1 | 0.47 | 0.16 |
| MRPS12 (mitochondrial ribosomal protein S12) | 1 | 0.25 | 0.02 | 0.42 | 0.33 |
